A mixed list of measured activities; the numbers were collected in NIAID ChemDB.

Common to all: whole-cell or culture tests; agent: Rhinovirus; endpoint: EC50

Rows are shuffled and stem from different studies. ECn is the concentration giving n% inhibition of infection, replication or growth. Blank or dashed fields: not listed here.

| SMILES | strain | read by | cell line | result |
|---|---|---|---|---|
| CCOC(=O)c1ccc(OCCC2CCN(c3ccc(C)nn3)CC2)cc1 | Serotype 1A |  |  | <0.95 µM |
| CSc1nsc(-c2ccc(O)cc2)c1C#N | Serotype 29 (group B) | cytopathic effect | HELA-OHIO | >10 µM |
| CSc1nsc(-c2ccc(OCc3ccccc3)cc2)c1C#N | Serotype 42 (group A) | cytopathic effect | HELA-OHIO | 7 µM |
| CN(C)c1nc(C(F)(F)F)nc2c1ncn2Cc1ccc(Br)cc1 | Serotype 1B | plaque count | M-HELA | 0.03 µM |
| CCO/N=C/c1ccc(OCCC2CCN(c3ccc(OCC(F)(F)F)nn3)CC2)cc1 | TYPE 1A | cytopathic effect / visual reading | KB | >1 µg/mL |
| Cn1c2ccccc2c2nnc(NCCCO)nc21 | 2060 | plaque count | WI-38 | 50 µg/mL |
| CCO/N=C/c1ccc(OCCC2CCN(c3ccc(Cl)nn3)CC2)c(OC)c1 | TYPE 1A | cytopathic effect / visual reading | KB | <0.0032 µg/mL |
| CN(C)c1nc(C(F)(F)F)nc2c1ncn2Cc1ccccc1Cl | Serotype 19 | plaque count | M-HELA | >8 µM |
| Fc1cccc(Cn2cnc3c(Nc4cccc(F)c4)nc(C(F)(F)F)nc32)c1 | Serotype 35 | plaque count | M-HELA | 9.7 µM |
| CN(C)c1nc(C(F)(F)F)nc2c1ncn2Cc1ccccc1 | Serotype 30 | plaque count | M-HELA | >8 µM |
| CCC(CO)Nc1nnc2c3ccccc3n(C)c2n1 | 1059 | plaque count | WI-38 | 220 µg/mL |
| CCO/N=C/c1ccc(OCCC2CCN(c3ccc(C)nn3)CC2)cc1O | TYPE 1A | cytopathic effect / visual reading | KB | <0.0032 µg/mL |
| CSc1nsc(-c2ccc(OCCCc3ccccc3)cc2)c1C#N | Serotype 14 (group A) | cytopathic effect | HELA-OHIO | >20 µM |
| COCCCNc1nnc2c3ccccc3n(C)c2n1 | 33342 | plaque count | WI-38 | 100 µg/mL |
| CCO/N=C/c1ccc(OCCCN2CCN(c3ccc(Cl)nn3)CC2)cc1 | TYPE 1A | cytopathic effect / visual reading | KB | 0.01 µg/mL |
| CN(C)c1ccc(Cn2cnc3c(N(C)C)nc(C(F)(F)F)nc32)cc1 | Serotype 19 | plaque count | M-HELA | >8 µM |
| CCOC(=O)c1ccc(OCCOc2ccc(-c3snc(SC)c3C#N)cc2)cc1 | Serotype 59 (group B) | cytopathic effect | HELA-OHIO | >2 µM |
| Cc1ccc(Cn2cnc3c(N(C)C)nc(C(F)(F)F)nc32)cc1 | Serotype 1B | plaque count | M-HELA | 0.03 µM |
| CCCn1c2ccccc2c2nnc(SC)nc21 | 1059 | plaque count | WI-38 | 20 µg/mL |
| CSc1nsc(-c2ccc(OCCCOc3ccccc3)cc2)c1C#N | Serotype 9 (group B) | cytopathic effect | HELA-OHIO | >20 µM |
| Cc1cc(CCCOc2c(C)cc(-c3noc(C(F)(F)F)n3)cc2C)on1 | Isolate 2 | cytopathic effect / visual reading | OHIO HELA-I | 0.02 µg/mL |
| CCCO/N=C/c1ccc(OCCC2CCN(c3ccc(Cl)nn3)CC2)cc1 | TYPE 1A | cytopathic effect / visual reading | KB | <0.0032 µg/mL |
| CSc1nsc(-c2ccc(OC(C)(C)C)cc2)c1C#N | Serotype 15 (group B) | cytopathic effect | HELA-OHIO | >40 µM |
| Cn1c2ccccc2c2nnc(NCC(C)(C)CO)nc21 | HGP | plaque count | WI-38 | 4 µg/mL |
| CN(C)c1nc(C(F)(F)F)nc2c1ncn2Cc1ccc(C(F)(F)F)cc1 | Serotype 30 | plaque count | M-HELA | >8 µM |
| CCO/N=C/c1ccc(OCCC2CCN(c3ccc(C)nn3)CC2)c(C)c1 | TYPE 1A | cytopathic effect / visual reading | KB | <0.003 µg/mL |
| CSc1nsc(-c2ccc(OCCCCOc3ccccc3)cc2)c1C#N | Serotype 89 (group B) | cytopathic effect | HELA-OHIO | 2.5 µM |
| Cc1cc(CCCCCOc2c(Cl)cc(C3=NCCO3)cc2Cl)on1 | TYPE 47 | plaque count | HeLa | 0.048 µg/mL |
| CSc1nsc(-c2ccc(OCCCOc3ccc([N+](=O)[O-])cc3)cc2)c1C#N | Serotype 29 (group B) | cytopathic effect | HELA-OHIO | >1 µM |
| CCOC(=O)/C=C/[C@H](C[C@@H]1CCNC1=O)NC(=O)[C@H](Cc1ccc(F)cc1)NC(=O)[C@@H](NC(=O)c1cc(C)on1)C(C)C | Serotype 2 |  |  | <0.05 µM |
| CSc1nsc(-c2ccc(OCc3ccccc3)cc2)c1C#N | Serotype 63 (group B) | cytopathic effect | HELA-OHIO | 10 µM |
| CCOC(=O)c1ccc(OCCC2CCN(c3ccc(C)nn3)CC2)cc1 | CH82 (ICAM-1 receptor group 56) | neutral red | KB | 0.022 µM |
| CSc1nsc(-c2ccc(OCCOc3ccc([N+](=O)[O-])cc3)cc2)c1C#N | Serotype 72 (group A) | cytopathic effect | HELA-OHIO | >2 µM |
| Cn1c2ccccc2c2nnc(NCCC(C)(C)O)nc21 | 2060 | plaque count | WI-38 | 50 µg/mL |
| CO/N=C/c1ccc(OCCCN2CCN(c3ccc(C)nn3)CC2)cc1 | TYPE 1A | cytopathic effect / visual reading | KB | 0.05 µg/mL |
| CSc1nsc(-c2ccc(OCCCCOc3ccc(C#N)cc3)cc2)c1C#N | Serotype 86 (group A) | cytopathic effect | HELA-OHIO | >2 µM |
| CN(C)c1ccc(Cn2cnc3c(Nc4cccc(F)c4)nc(C(F)(F)F)nc32)cc1 | Serotype 5 | plaque count | M-HELA | >80 µM |